From US20230391835A1 (Pfizer, published 2023)

B1: B8-26 mAb (antibody, V domains shown)
VH: QVQLQQPGAELVKPGAPVKLSCKASGYSFTSYWMNWVKQRPGRGLEWIGRIDPSNSEIYYNQKFKDKATLTVDKSSSTAYIQLSSLTSEDSAVYYCASGHYGSIFAYWGQGTTLTVSS
VL: VQITQSPSYLAASPGETITINCRASKSISKYLAWYQEKPGKTNKLLLYSGSTLQSGIPSRFSGSRSGTDFTLIISSLEPEDSAMYYCQQHNEYPLTFGAGTKLELKR
B2: B8-26 mAb (C. difficile TcdB neutralizing antibody) (antibody, V domains shown)
VH: B1 VH
VL: B1 VL
B3: B59-3 mAb (antibody, V domains shown)
VH: QVQLQQPGAELVKPGASVKLSCKASGYTFTSYWMHWVKQRPGQGLEWIGVINPSNGRSTYSEKFKTTATVTVDKSSSTAYMQLSILTSEDSAVYYCARAYYSTSYYAMDYWGQGTSVTVSS
VL: VLMTQSPLSLPVSLGDQASISCRSSQNIVHSNGNTYLEWYLQKPGQSPKLLIYKVSNRFSGVPDRFSGSGSGTYFTLKISRVEAEDLGVYYCFQGSHFPFTFGTGTKLEIKR
B4: B59-3 mAb (C. difficile TcdB neutralizing antibody) (antibody, V domains shown)
VH: B3 VH
VL: B3 VL

Assays:
[1] = biological target: Formalin-inactivated triple mutant toxin B (SEQ ID NO: 6) (Clostridium difficile (strain 630 …))
[2] = biological target: EDC/NHS-treated triple mutant toxin B (SEQ ID NO: 6) (Clostridium difficile (strain 630 …))
[3] = biological target: Triple mutant toxin B (SEQ ID NO: 6), not chemically treated (Clostridium difficile (strain 630 …)); experiment: dot blot; None, Triple mutant TcdB
[4] = biological target: Triple mutant toxin B (SEQ ID NO: 6), untreated (Clostridium difficile (strain 630)); experiment: dot blot, non-denaturing conditions; sample L44905-86-01 untreated control

Binder | binding result [1] | binding result [2] | binding result [3] | binding result [4]
B1 | binds | binds | binds | –
B2 | – | – | – | binds
B3 | binds | binds | binds | –
B4 | – | – | – | binds
